# Library screen at single concentrations

Measurements from “University of Dundee, Small-Polar-MMV Screening Library” (2021), ChEMBL document CHEMBL3988442.

The filed quantity is “Percent Effect” (%). How 0% and 100% were set is not recorded. Most values in the screen are low, and negative values occur. The entries come from a sample that favours strong results.

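Growth of Mycobacterium tuberculosis over 4 days (cholesterol / DPPC medium with tyloxapol); the read-out is not stated. Concentration: 500 µM. Higher reads as more growth inhibition (inferred: compounds with an IC50 in retests scored well above the rest). Of about 18,000 compounds tested this way, about 900 (5%) reached 50% or more in at least one test.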

{"compound": "Cc1nn(CCO)c(C)c1CNCC1(O)CCCCC1", "percent effect": -7.002}
{"compound": "OCc1cc(F)cc(N2CCOCC2)c1", "percent effect": -1.378}
{"compound": "O=C1NCC(C(=O)NCCCc2ccc(Cl)cc2)N1", "stereo": "centres unmarked", "percent effect": 36.41}
{"compound": "N#Cc1ccc(OCC(=O)Nc2ccccn2)cc1", "percent effect": 73.33}
{"compound": "COc1cc(OC)cc(N2CCC(N)C2)c1", "stereo": "centres unmarked", "percent effect": 51.42}
{"compound": "Cc1cc(S(=O)(=O)N[C@@H]2COCC[C@H]2O)c(Cl)cc1F", "percent effect": -6.491}
{"compound": "O=C1NCCNC1c1c(F)cccc1Cl", "stereo": "centres unmarked", "percent effect": 4.309}
{"compound": "O=S(=O)(CCN1CCCCC1)c1ccccc1", "percent effect": 35.1}
{"compound": "NCC(O)CN1CCc2ccccc2C1", "stereo": "centres unmarked", "percent effect": 3.858}
{"compound": "CC(=O)NCCN(C)Cc1ccccc1", "percent effect": -22.25}
{"compound": "COc1cc(C)c([S+](C)[O-])cc1OC", "stereo": "centres unmarked", "percent effect": 2.85}
{"compound": "CCN1CCC(NC(=O)C2CCCC2)CC1", "percent effect": 8.132}
{"compound": "Cc1ccccc1-c1nnc(CN2CCCS2(=O)=O)o1", "percent effect": 15.46}
{"compound": "O=C(NCc1nc(C2CC2)no1)Nc1nncs1", "percent effect": -6.759}
{"compound": "CCC(C)Oc1cc(CN)ccn1", "stereo": "centres unmarked", "percent effect": -11.63}
{"compound": "Cc1ccnc(CC2CCCN2)c1", "stereo": "centres unmarked", "percent effect": 9.159}
{"compound": "Cc1ccc(C(=O)NCc2ccnc(N(C)C)c2)s1", "percent effect": 52.07}
{"compound": "Cc1cc(=O)cc(C(=O)NCCCc2ccncc2)o1", "percent effect": -7.065}
{"compound": "Cc1ccnc(NCCS(=O)(=O)NCC2CCC2)c1", "percent effect": 68.25}
{"compound": "OC1(CNc2nc(-c3ccccc3)ns2)CCSC1", "stereo": "centres unmarked", "percent effect": 92.18}
{"compound": "Cc1cc(=O)c(C(=O)N2CCN(C)CC2C(C)C)c[nH]1", "stereo": "centres unmarked", "percent effect": 9.531}
{"compound": "COCCCn1cnn(C(C)(C)C)c1=O", "percent effect": 1.214}
{"compound": "c1cc2c(cc1CN1CCNCC1)OCCO2", "percent effect": 10.5}
{"compound": "NC(=O)CCN1CCN(c2ncc(Br)cn2)CC1", "percent effect": 17.73}
{"compound": "O=C(NCC1CC1)c1noc(-c2ccccc2F)n1", "percent effect": 50.63}
{"compound": "CC1(CN)CCCN1Cc1ccccc1", "stereo": "centres unmarked", "percent effect": -1.581}
{"compound": "Cc1cncc(C(N)=O)c1", "percent effect": -3.349}
{"compound": "Cc1ccc(F)c(CN2CC[C@H](N)C2)c1", "percent effect": 63.42}
{"compound": "CN(C)c1ncc(CN2CCCC(O)(CO)CC2)cn1", "stereo": "centres unmarked", "percent effect": 29.4}
{"compound": "Clc1cnn(CCN2CCCC3(CCOCC3)C2)c1", "percent effect": 9.287}
{"compound": "CCNC(=O)CCN1C[C@H](C2CC2)[C@@H](N)C1", "percent effect": 4.508}
{"compound": "CC(C)c1nc(Cn2ncn(C)c2=O)cs1", "percent effect": -2.57}
{"compound": "CCS(=O)(=O)CC1(O)CCCCC1", "percent effect": -10.81}
{"compound": "CCOc1ccc2c(c1)C(N)CCO2", "stereo": "centres unmarked", "percent effect": 23.63}
{"compound": "Cc1cc(C)c(CNC(=O)C2CCCO2)c(=O)[nH]1", "stereo": "centres unmarked", "percent effect": 1.732}
{"compound": "O=S(=O)(NCC1(NS(=O)(=O)C2CC2)CCC1)C1CC1", "percent effect": 10.42}
{"compound": "OCCOCCn1cccn1", "percent effect": -1.229}
{"compound": "Cc1nn(CCO)c(C)c1CNC(C)Cn1cccn1", "stereo": "centres unmarked", "percent effect": -12.71}
{"compound": "NS(=O)(=O)CCN1CCOC(c2ccccc2)C1", "stereo": "centres unmarked", "percent effect": 2.921}
{"compound": "CN1CCc2nc(NC(=O)CC(C)(C)C)sc2C1", "percent effect": 53.16}
{"compound": "CNC(=O)NC(=O)CN1CCCCC1CNS(C)(=O)=O", "stereo": "centres unmarked", "percent effect": -1.335}
{"compound": "O=C(NCCOc1ncccc1Cl)c1cc(Cl)c[nH]1", "percent effect": 88.47}
{"compound": "CCC(N)C(=O)N(CC)Cc1ccoc1", "stereo": "centres unmarked", "percent effect": -14.3}
{"compound": "COCC(=O)Nc1cnc(-c2cccnc2)nc1", "percent effect": 5.43}
{"compound": "CCCC(O)(C(N)=O)c1ccccc1", "stereo": "centres unmarked", "percent effect": 35.27}
{"compound": "CC(C)(C)OC(=O)N1CCN(C(=O)CN)CC1", "percent effect": -6.769}

Once more, the final 5:

Compound,percent effect
O=C(NCCOc1ncccc1Cl)c1cc(Cl)c[nH]1,88.47
CCC(N)C(=O)N(CC)Cc1ccoc1 (centres unmarked),-14.3
COCC(=O)Nc1cnc(-c2cccnc2)nc1,5.43
CCCC(O)(C(N)=O)c1ccccc1 (centres unmarked),35.27
CC(C)(C)OC(=O)N1CCN(C(=O)CN)CC1,-6.769